Data as given in patent US12715896B2 (priority 2020, dated 2026).
Read-outs that look alike come from different tables or passages of the source.

Target: SARS-CoV-2 M^pro (Severe acute respiratory syndrome coronavirus 2, UniProt P0DTD1)
Assay: FRET-based enzymatic assay for SARS-CoV-2 main protease
Assay type: biochemical

SMILES	IC50 [µM]	IC50 (read-out: SARS-CoV-2 M^pro IC50) [µM]
CCC[C@@H](C=O)NC(=O)[C@H](CC(C)C)NC(=O)[C@H](CC(C)C)NC(=O)OCc1ccccc1 [Jun9-48-2]	1.49	–
CCCC[C@H](NC(=O)[C@@H]1[C@@H]2[C@H](CN1C(=O)[C@@H](NC(=O)NC1(CS(=O)(=O)C(C)(C)C)CCCCC1)C(C)(C)C)C2(C)C)C(=O)C(=O)NC1CC1 [Narlaprevir (29), Narlaprevir]	–	4.73
